Structures are written as SMILES. The entries are a selection whose mix differs from that of the whole data set. Active and inactive are the calls of the source. Cut-off read from the data, not from the text of the source: active = z-score mostly below about -2.9 (no sharp cut-off); inactive = mostly above about -1.9.

The values below come from PubChem BioAssay AID492967 (ICCB-Longwood Screening Facility, Harvard Medical School, 2010).

For the experiment, the system named is CapD gamma-glutamyltranspeptidase (Bacillus anthracis Ames Ancestor). Description: inhibition of CapD gamma-glutamyltranspeptidase – biochemical, fluorescence intensity, primary screen (AID 492967). The conditions noted are these: purified CapD enzyme, fluorescence intensity read-out; hits give low values.
For `CC(C)(C)OC(=O)N1CCC(=O)CC1`, the z-score was inactive: -0.19.
The value for `N#CC(C#N)=Cc1ccc2c(c1)OCO2` was inactive: 0.53; that for `CC(C)(C)OC(=O)N1CCC(Nc2ccc(OC(F)(F)F)cc2)CC1` was inactive: 0.635.
For `COc1cccc(OC)c1CN1CCC(Nc2ccccc2)CC1` the value was inactive: -0.085; for `c1ccc(CN2CCC(Nc3ccc4c(c3)OCO4)CC2)cc1`, inactive: 1.64; for `FC(F)(F)Oc1ccc(NC2CCNCC2)cc1`, inactive: 0.855.
For `CC(=O)N1CCc2cc(N(C(=O)/C=C/c3ccccc3)C3CCN(Cc4ccccc4)CC3)ccc21` the value was inactive: -0.205; for `CC1CN(CCc2ccccc2)CCC1=O` (configuration not stated), inactive: 0.135; for `N#CC1(Nc2ccccc2)CCN(Cc2ccccc2)CC1`, inactive: 0.275.
Turning to `Cc1ccccc1NC1CC(C)(C)NC(C)(C)C1`, the z-score was inactive: -0.54.
The value for `CCCN1CCC(Nc2ccc(OC)c(OC)c2)CC1` was inactive: 0.53; that for `CCOC(=O)N1CCC(Nc2cccc(C)c2)CC1` was inactive: 0.16; that for `CC(C)(C)c1cc2cc(N(C(=O)c3ccc(C(F)(F)F)cc3)C3CCN(Cc4ccccc4)CC3)ccc2[nH]1` was inactive: -0.135.
For `O=C1CCN(Cc2ccccc2)CC1` the value was inactive: 0.6.
For `CC(=O)N1CCc2ccc(N(C(=O)C(C)(C)C)C3CCN(Cc4ccccc4)CC3)cc21` the value was inactive: 0.255; for `CC1CC(C(=O)N2CCN(C/C=C/c3ccccc3)CC2)C2CCCC12` (configuration not stated), inactive: 0.205; for `CCOC(=O)N1CCC(Nc2ccc(F)cc2)CC1`, inactive: 0.295.
As to `CCN1CCC(Nc2ccc(F)cc2)CC1`, the z-score was inactive: 0.975.
For `CC1CN(C)C(C)CC1Nc1ccccc1` (configuration not stated) the value was inactive: -0.645; for `CC1CN(CCc2ccccc2)C(C)CC1=O` (configuration not stated), inactive: -0.13.
As to `CC1CN(Cc2ccccc2)CCC1=O` (configuration not stated), the z-score was inactive: 1.61.
Take `CC(C)(C)OC(=O)N1CCC(Nc2ccccc2)CC1`: the z-score is inactive: 0.08.
On to `CN1CCC(Nc2ccc(F)cc2)CC1`, for which the z-score is inactive: 0.695.
For `O=C1CCN(CCc2ccccc2)CC1`, the z-score was inactive: 0.13.
The value for `NC(=O)C1(Nc2ccccc2)CCN(Cc2ccccc2)CC1` was inactive: 0.655.
The value for `CCCN1CCC(Nc2cc(OC)cc(OC)c2)CC1` was inactive: -0.13; that for `COc1cccc(OC)c1CN1CCC(=O)CC1` was inactive: -0.73.
